# Literature values in publication PMC3315515, “Identification of Novel Mt-Guab2 Inhibitor Series Active against M. tuberculosis” (PLoS ONE, 2012).
# Test system: vero cell
# Conditions: Table 1; SI = EC50/IC90, vero cell cytotoxicity to anti-TB activity; ref [37]; cited from earlier work
row,Structure (SMILES),SI
1,COc1ccc(OC(C)C(=O)Nc2ccc(I)cc2)cc1 (stereo not shown) [compound 7759844],> 23.70

# Same assay, conditions: Table 2, values with footnote a; ref Reynolds et al., 2011; cited from earlier work
row,Structure (SMILES),SI
1,O=C(Nc1nnc(-c2cccs2)o1)c1nc2ccccc2s1 [F1374-0978],4.6 ^a
2,Cc1ccc(-c2nnc(NC(=O)c3nc4ccccc4s3)o2)c(C)c1 [F2518-0183],17 ^a

# Same assay, conditions: Table 2, values without footnote a; SI = EC50/IC90; previous screens ref [35]–[37]; cited from earlier work
row,Structure (SMILES),SI
1,O=C(Nc1nnc(-c2ccc(Br)cc2)o1)c1sc2ccccc2c1Cl [F2518-0484],>5.97
2,Cc1ccc(C)c(-c2nnc(NC(=O)COc3ccccc3)o2)c1 [F2518-0418],8.20
3,O=C(Nc1nnc(-c2ccccc2)o1)c1cc(-c2cccs2)nc2ccccc12 [F1374-0885],6.55
4,COc1cc2ccccc2cc1C(=O)Nc1nnc(-c2ccc(F)cc2)o1 [F1374-0205],3.43
5,Cc1ccc(-c2nnc(NC(=O)COc3ccccc3)o2)c(C)c1 [F2518-0274],5.11
6,O=C(CS(=O)(=O)c1ccccc1)Nc1nc(-c2ccc3c(c2)CCCC3)cs1 [F2536-1573],6.68
7,CCOc1cc(-c2nnc(NC(=O)c3cc4ccccc4cc3OC)o2)cc(OCC)c1OCC [F2517-0198],3.84
8,O=C(Nc1nnc(-c2ccccc2Cl)o1)c1nc2ccccc2s1 [F1374-0033],7.89
9,COc1cc2ccccc2cc1C(=O)Nc1nnc(-c2cc(C)ccc2C)o1 [F2518-0413],6.67
10,O=C(Nc1nnc(-c2ccc(Cl)s2)o1)c1nc2ccccc2s1 [F1374-1083],>8.31
11,CC(C)c1ccc(OCC(=O)Nc2nccs2)cc1 [F1685-0077],>5.81
12,Cc1ccc(C)c(-c2nnc(NC(=O)C3COc4ccccc4O3)o2)c1 (stereo not shown) [F2518-0401],12.51
13,COc1ccccc1-c1nnc(NC(=O)c2sc3ccccc3c2Cl)o1 [F1374-0253],>7.55
